Data taken from ChEMBL document CHEMBL3988442, “University of Dundee, Small-Polar-MMV Screening Library” (2021).

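Growth of Mycobacterium tuberculosis over 3 days (7H9 medium with glucose and tyloxapol); the read-out is not stated. Compounds at 500 µM. Direction is inferred from retests: higher values go with more growth inhibition. Of about 18,000 compounds tested this way, about 1,400 (7.9%) reached 50% or more in at least one test.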

Values are the deposited “Percent Effect”, in %.
The record does not define 0% and 100%; most values in the screen are far below 50% and negative numbers occur (in some assays of this library far below -100).
This is part of a subset picked to be rich in strong results.

For C[C@H](NC(=O)COC1CCCCC1)C(N)=O the result was 4.237%. CC(C)(C)c1cnc(CN2CCOCC2C(N)=O)o1 (stereo not given) read 62.11%. CC(C)(C)OC(=O)N1CCOCC1C#N (stereo not given) gave 4.335%. CCn1ccnc1SC1CCCCNC1=O (stereo not given) gave 9.985%.

For Cc1nn(CCC#N)c(C)c1Cl the result was 19.42%. Result for CN(CCO)C[C@@H]1CN(C(=O)CC2CCC2)C[C@@H]1CO was 7.167%. Result for Cc1cncc(NS(=O)(=O)CCc2ccccc2)c1 was 59.72%. CCS(=O)(=O)c1ccc(CNc2ncccc2Cl)cc1 read 65.09%.

For CC(=O)c1ccc(OCCN(C)C)cc1 the result was 3.088%. Result for Cc1cccc(NC(=O)CN(C)C2CCS(=O)(=O)C2)n1 (stereo not given) was -3.232%. COc1ccc2oc(C(=O)NC(C)C(N)=O)c(C)c2c1 (stereo not given) gave 7.445%. C1CC(N2CCOCC2)CCN1 read 0.4783%.

For COC(=O)CCNS(=O)(=O)c1ccc(OC)cc1 the result was 51.7%. For COCCN(C(=O)C1CCCO1)c1ccc(C#N)cc1 (stereo not given) the result was -3.582%. With OC(CNCc1csnn1)Cc1ccc(F)cc1F (stereo not given) the screen gave 16.18%. Result for CCS(=O)(=O)CCNC(=O)c1cncnc1C was 2.887%.

With CN(Cc1ccccc1Br)C(=O)c1nccnc1N the screen gave 52.93%. CCCn1ncnc1C(C)NC(=O)c1cnccn1 (stereo not given) read 11.72%. With CN1CCN(C(=O)c2cnsn2)c2ccccc21 the screen gave 50.46%. CCNC(=O)c1cc(N2CCC(COC)CC2)ccn1 gave 57.59%.

With N#CC1(C(=O)Nc2cc(C(N)=O)ccc2Cl)CCCC1 the screen gave 0.4694%. O=C1Nc2ccccc2C1O (stereo not given) gave 0.1265%. For NCCNC(=O)c1ccno1 the result was 35.9%. Result for COc1ccc(CC#N)cc1S(C)(=O)=O was -0.02476%.

O=C(Cn1c(=O)[nH]c(=O)c2ccccc21)N1CCCC1 gave 5.236%. With COc1ncc(C)cc1NC(=O)c1ccc(C)[nH]c1=O the screen gave -11.35%. Result for c1cncc(CNCc2ccc3c(c2)OCCCO3)c1 was 29.06%. Result for CCC1c2ccsc2CCN1C(C)=O (stereo not given) was 45.86%.

Result for CCOC(=O)CSc1n[nH]c(-c2cccnc2)n1 was 15.63%. CNS(=O)(=O)N1CCc2ccccc2C1 gave 21.92%. CSc1ccc(CC(=O)N(C)Cc2ccon2)cc1 read 55.94%. Result for Nc1nc(-c2ccc3c(c2)CCCC(=O)N3)cs1 was 47.58%.

Result for COc1cc(NC(=O)Cn2ccnc2)c(OC)cc1Cl was 8.618%. CCOc1ccc(S(=O)(=O)NC(C)C(N)=O)cc1 (stereo not given) read -4.003%. COc1ccccc1CN1CCC(N)CC1 gave 62.09%. For CCN(C)C(=O)CCOc1ccccc1C(N)=O the result was -0.3894%.

Cc1cc(C(=O)N[C@@H]2CC[C@@H](N)C2)ccc1O gave -1.245%. CN1CCCC2(CCNC2)C1=O (stereo not given) read 1.838%. NCC1CN(c2nc3cc(Cl)ccc3o2)CCO1 (stereo not given) gave 70.88%. For c1snnc1CNCC1COC2(CCCCC2)O1 (stereo not given) the result was 56.1%.

Result for CCN(CCNS(C)(=O)=O)Cc1cccc2c1OCO2 was 0.3729%. Cc1nc(CN2CCC(CN)CC2)cs1 read 12.64%. With Cc1cnc(C(=O)N2CCC(O)(CN(C)C)C2)cn1 (stereo not given) the screen gave 0.0122%. Result for O=C(c1cc(C2CC2)on1)N1CCN2CCC1CC2 was -6.955%.

With O=C(CN1CCc2sccc2C1)N1CCNC1=O the screen gave 6.999%. COc1ccccc1OCC(C)NS(C)(=O)=O (stereo not given) gave 16.67%. Result for CC(C)Oc1ccc(CN)cc1 was 65.13%. CCC(C#N)NC(=O)c1cccc(CN2CCCC2)c1 (stereo not given) read 27.91%.

With COc1cc(I)c(C(=O)N2CCC2)cc1OC the screen gave 17.72%. Result for NC(=O)COc1ccc(CNCc2ccccc2)cc1 was 8.956%.

Some entries from above, unchanged:

Result for O=C(c1cc(C2CC2)on1)N1CCN2CCC1CC2 was -6.955%.
Result for c1cncc(CNCc2ccc3c(c2)OCCCO3)c1 was 29.06%.
Result for C[C@H](NC(=O)COC1CCCCC1)C(N)=O was 4.237%.
Result for COc1cc(I)c(C(=O)N2CCC2)cc1OC was 17.72%.
Result for NC(=O)COc1ccc(CNCc2ccccc2)cc1 was 8.956%.